Results of unrelated studies side by side (data: NIAID ChemDB).

All rows: tests in culture; agent: Human cytomegalovirus; measure: EC50

ECn: concentration that inhibits the pathogen or its effect by n%.

structure	strain	cell line	method	result
COC(=O)[C@]1(O)C[C@@H]2O[C@@]1(C)n1c3ccccc3c3c4c(c5c6ccccc6n2c5c31)C(=O)NC4	AD169	HEF	plaque count	0.04 µM
Cc1cccc2c1OP(=O)(OC[C@H]1O[C@@H](n3cc(/C=C/Br)c(=O)[nH]c3=O)C[C@@H]1OC(=O)C(C)C)OC2	AD169	HELF	plaque count	>128 µg/mL
CC(C)COC(=O)C(O)Cn1cnc2c(N)ncnc21	DAVIS (20 PFU)	HEL	plaque count	1.5 µg/mL
Cc1cc(C)cc(Cn2c(=O)ccn(Cc3c(F)cccc3F)c2=O)c1	AD169	-	-	>42 µM
Nc1ccn(C[C@@H](CO)OCP(=O)(O)O)c(=O)n1	U9070 (ganciclovir-resistant)	HEL	plaque count	0.3 µg/mL
O=c1c(-c2ccc(O)cc2)coc2cc(O)cc(O)c12	Isolate 6	HEF	plaque count	26.7 µM
Nc1nccc2c1ncn2[C@@H]1O[C@H](CO)[C@@H](O)[C@H]1O	AD-169 (20 PFU)	HEL	plaque count	2.4 µg/mL
O=c1ccn(Cc2ccccc2)c(=O)[nH]1	AD169	-	-	>247 µM
Nc1ncnc2c1ncn2[C@@H]1C=C(CO)[C@@H](O)[C@H]1O	AD-169 (20 PFU)	HEL	plaque count	0.34 µg/mL
O=C(NCCc1c[nH]c2ccccc12)C1=Cc2ccncc2CC1	1117R73-1-2	HFF	plaque count	6.4 µM
C[C@H](O)C1=C[C@@H](n2cnc3c(N)ncnc32)[C@H](O)[C@@H]1O	AD-169 (20 PFU)	HEL	plaque count	14.6 µg/mL
C#CCn1ccc(=O)n(Cc2cc(C)cc(C)c2)c1=O	AD169	-	-	>75 µM
Nc1nc2c(ncn2COC(CO)CO)c(=O)[nH]1	U9070 (ganciclovir-resistant)	HEL	plaque count	5.6 µg/mL
Cc1cc(C)cc(Cn2c(=S)ccn(CC#N)c2=O)c1	AD169	-	-	53 µM
C[C@@H]1C[C@@H](n2cnc3c(N)ncnc32)[C@H](O)[C@@H]1O	DAVIS (20 PFU)	HEL	plaque count	25 µg/mL
C[C@H](N)C(=O)O[C@H]1C[C@H](n2cc(/C=C/Br)c(=O)[nH]c2=O)O[C@@H]1COP1(=O)OCc2ccccc2O1	AD169	HELF	plaque count	>128 µg/mL
Nc1ncnc2c1ncn2[C@@H]1C[C@H](c2ccccc2)[C@@H](O)[C@H]1O	DAVIS (20 PFU)	HEL	plaque count	18.1 µg/mL
Cc1cc(C)cc(Cn2c(=O)ccn(CCc3ccccc3)c2=O)c1	AD169	-	-	22 µM
Cc1cc(C)c2c(c1)COP(=O)(OC[C@H]1O[C@@H](n3cc(/C=C/Br)c(=O)[nH]c3=O)C[C@@H]1O)O2	AD169	HELF	plaque count	>128 µg/mL
Nc1ncnc2c1ncn2[C@H]1[C@H](O)[C@H](O)[C@@H](CO)[C@H]1F	DAVIS (100 PFU)	HEL	cytopathic effect	0.035 µg/mL
N#CCn1ccc(=O)n(Cc2ccc(-c3ccccc3)cc2)c1=O	AD169	-	-	4.73 µM
Nc1ncnc2c1ncn2C[C@H](O)CO	AD-169 (100 PFU)	HEL	cytopathic effect	>100 µg/mL
Cc1cc(Cn2c(=O)ccn(Cc3c(F)cccc3F)c2=O)cc(C)n1	AD169	-	-	5.9 µM
Nc1nccc2c1ncn2C(C=O)OC(C=O)CO	AD-169 (100 PFU)	HEL	cytopathic effect	6.25 µg/mL
CCCCCCCCCC(=O)O[C@H]1C[C@H](n2cc(/C=C/Br)c(=O)[nH]c2=O)O[C@@H]1COP1(=O)OCc2cccc(C)c2O1	AD169	HELF	plaque count	>64 µg/mL
O=C(O)C[C@H](NCCN[C@@H](CC(=O)O)C(=O)O)C(=O)O	LY9990 (ganciclovir-resistant)	HEL	plaque count	7.6 µg/mL
CCCCCC(=O)O[C@H]1C[C@H](n2cc(/C=C/Br)c(=O)[nH]c2=O)O[C@@H]1COP1(=O)OCc2cccc(C)c2O1	AD169	HELF	plaque count	>128 µg/mL
N#CCn1ccc(=O)n(Cc2cccc3ccccc23)c1=O	AD169	-	-	48 µM
Cn1c2ccccc2c2c3c(c4c5ccccc5n(CCC#N)c4c21)CNC3=O	A6245	HEF	plaque count	0.05 µM

4 of the rows above, restated:

Nc1ccn(C[C@@H](CO)OCP(=O)(O)O)c(=O)n1 ; strain: U9070 (ganciclovir-resistant) ; cell line: HEL ; method: plaque count ; result: 0.3 µg/mL
C[C@H](O)C1=C[C@@H](n2cnc3c(N)ncnc32)[C@H](O)[C@@H]1O ; strain: AD-169 (20 PFU) ; cell line: HEL ; method: plaque count ; result: 14.6 µg/mL
Cc1cccc2c1OP(=O)(OC[C@H]1O[C@@H](n3cc(/C=C/Br)c(=O)[nH]c3=O)C[C@@H]1OC(=O)C(C)C)OC2 ; strain: AD169 ; cell line: HELF ; method: plaque count ; result: >128 µg/mL
C[C@@H]1C[C@@H](n2cnc3c(N)ncnc32)[C@H](O)[C@@H]1O ; strain: DAVIS (20 PFU) ; cell line: HEL ; method: plaque count ; result: 25 µg/mL

An empty or dashed field is not shown. Conditions beyond the fields shown may differ between rows.